# Measurements taken from PubChem BioAssay AID720706 (Broad Institute, 2013).
# This is a selection; strong and weak results do not stand in their true shares. Active and inactive are the calls of the source.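 The calls were made as follows: active = significant combined selectivity score with lowered wild-type GFP, culture density cut under 30%, mutant RFP and density less affected; inactive = any of these conditions unmet.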
# Experiment: reduced GFP signal of wild-type E. coli, primary screen, bacterial rRNA inhibitor project, GFP/RFP fluorescence, OD600, single point (AID 720706)
# Conditions: E. coli WT GFP vs humanized-ribosome RFP mutants, 24 h, hits give low values, DMSO median 0, no signal -100
row,Structure (SMILES),GFP signal change (wild-type ribosome)
1,CC(C)/C=N\N=C(\N)N[N+](=O)[O-],inactive: 3.74%
